# Primary screen of a compound library

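Growth of Mycobacterium tuberculosis over 3 days (7H9 medium with glucose and tyloxapol); the read-out is not stated. Tested at 500 µM. Direction is inferred from retests: higher values go with more growth inhibition. Size under these conditions: about 18,000 compounds, about 1,400 of them at 50% or above in at least one test.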

Results are given as percent effect. How 0% and 100% were set is not recorded. Most values in the screen are low, and negative values occur. This is part of a subset picked to be rich in strong results.

| SMILES | Percent Effect |
|---|---|
| `CCCc1nnc(NC2CCN(C(=O)OCC)CC2)o1` | 59.68 |
| `CC(C)Oc1ccc(NC(=O)NCC(=O)N(C)C)cc1` | -13.15 |
| `CNCC(C)(CO)CO` | -0.1 |
| `c1ccc(-c2n[nH]c(C3CCNCC3)n2)cc1` | 17.6 |
| `c1ccc(N2CCC(N3CCCC3)CC2)nc1` | 1.113 |
| `CS(=O)(=O)NCC(CO)Cc1c(F)cccc1Cl` (stereo not shown) | 30.93 |
| `COCCNC(=O)CN1CCCC(C(F)(F)F)C1` (stereo not shown) | 44.63 |
| `Cc1ocnc1C(=O)Nc1ccc2c(c1)NCCC2` | 22.97 |
| `CCC(C#N)NC(=O)c1cnc(OC(C)C)c(Cl)c1` (stereo not shown) | 78.4 |
| `Oc1ccnc(C2CCC2)n1` | -6.819 |
| `CN1CCCN(C(=O)c2coc(Br)c2)CC1` | 15.71 |
| `CN(C)C(=O)c1cccc(CC#N)c1` | -11.31 |
| `N#CCc1ccc(-n2cnnn2)cc1` | 17.64 |
| `CCC(CO)NC(=O)C1(c2ccc(F)cc2F)CCC1` (stereo not shown) | 54.95 |
| `Cc1ccc(NC(=O)N(C)C[C@H](O)CO)cc1Cl` | 23.01 |
| `CC(C)(C)c1nc(CN2CC[C@H](CO)[C@H](O)C2)no1` | -1.498 |
| `CCNC(=O)CN1CCC(Cn2ccnc2C)CC1` | 3.216 |
| `CC(=O)NC(C(=O)N(C)Cc1cccs1)C(C)C` (stereo not shown) | 14.96 |
| `CCCn1nnnc1NCc1ccc2c(c1)OCO2` | 45.92 |
| `O=C1CCC(=O)N1CCOc1cccc(F)c1` | 27.9 |
| `CCc1ccc(C2CNCCO2)cc1` (stereo not shown) | 46.78 |
| `CNCc1c[nH]nc1C` | -0.9117 |
| `Cc1cc(C#N)ccc1CO` | 24 |
| `CCN1CCN(Cc2nc(C3CC3)no2)CC1` | 7.867 |
| `CC(C)c1nnc(CN[C@H](CO)C(C)C)o1` | 12.2 |
| `c1cncc(CN2CCCOC(CN3CCCC3)C2)c1` (stereo not shown) | 12.85 |
| `Cc1ccsc1CN(C)C(=O)c1ccccn1` | 35.33 |
| `CC(C)n1ncc(C(=O)N=c2cc[nH]n2C(C)C)c1N` | 6.015 |
| `CN1CCCN(C(=O)C2COc3ccccc3C2)CC1` (stereo not shown) | 18 |
| `Fc1ccc2nc(N3CCCNCC3)oc2c1F` | 77.16 |
| `OCC(c1ccc(Br)cc1)N1CCNCC1` (stereo not shown) | 31.28 |
| `CCOc1ccc2c(c1)C=C(C(=O)NC)CO2` | 61.77 |
| `Cc1cc(C)n(-c2ccc(CNC(=O)C(C)N)cn2)n1` (stereo not shown) | 40.24 |
| `c1ccc(CNC2CCNC2)cc1` (stereo not shown) | 4.046 |
| `COCC(C)NC(=O)CSc1nc(N)c2ccsc2n1` (stereo not shown) | 20.2 |
| `CC(C)(C#N)C(=O)NCCNc1cccc(Br)c1` | 82.84 |
| `CC(C)CNC1CCS(=O)(=O)C1` (stereo not shown) | 1.281 |
| `CC(C)OCCCNC(=O)c1ccc(S(N)(=O)=O)cc1` | 38.68 |
| `C1CN(C2CNC2)CCO1` | 0.9005 |
| `Nc1nccnc1C(=O)NC1COc2ccccc2C1` (stereo not shown) | 1.921 |
| `CC(=O)Nc1cccn(CC(F)(F)F)c1=O` | -12.54 |
| `CCCS(=O)(=O)Nc1cccc2c1CCN2C` | 31.11 |
| `CCOc1ncccc1CNC(=O)c1[nH]ncc1Br` | 52.13 |
| `Cc1cccc2[nH]c(CNC(=O)CNC(N)=O)nc12` | 0.9946 |
| `CN(Cc1ccccc1)C(=O)CC1CCNC1` (stereo not shown) | 38.77 |
| `CSCCOC(=O)c1ccn(C(C)C)n1` | 77.38 |
| `CC(C)(C)NC(=O)N1CCNCC1` | 5.265 |
| `NCc1nc(-c2ccccn2)no1` | -0.03095 |
| `COCCOCc1cccc(NC(=O)NC(C)C)c1` | 63.38 |
| `NCc1ccc(N2CCNC2=O)cc1` | -3.356 |
| `OC1(CNCC2(O)CCCC2)CCCC1` | -1.265 |
| `Cn1c(CNC(=O)C2CCCOC2)nnc1C1CCC1` (stereo not shown) | 1.037 |
| `NC(=O)C[C@@H](N)c1ccc(F)cc1` | 2.751 |
| `CCNC(=O)C1CCN(c2ccncc2Cl)CC1` | 1.491 |
| `CCn1cnnc1CNC(=O)C1CCC(=O)N1` (stereo not shown) | 5.739 |
| `CN1N=C(c2ccc3c(c2)OCCO3)CCC1=O` | 12.95 |
| `CC1(N)Cc2ccccc2C1` | 48.19 |
| `CN(C)CCNc1oc(-c2ccccc2)nc1C#N` | 3.992 |
| `Nc1nc(CO)cs1` | 16.11 |
| `NC(=O)Cn1c(C2CC2)nc2ccccc21` | -5.11 |
| `CCS(=O)(=O)CCNc1cc(C2CC(N)C2)ncn1` (stereo not shown) | 12.62 |
| `Cn1ccc(C(=O)NCc2csc(Br)c2)cc1=O` | 57.51 |
| `CN(C)C(=O)CCN1CCC(N)CC1` | -0.6514 |
| `Cc1cccc(N2CCN(CCCN)CC2)c1` | 49.95 |
| `CC(C(N)=O)N1CCN(Cc2ccc(Cl)c(F)c2)CC1` (stereo not shown) | 30.91 |
| `CN(C)C1CCN(C(=O)CC2CCNCC2)CC1` | 5.547 |
| `O=c1cc(CSCCO)c2ccccc2[nH]1` | -6.629 |
| `COc1cn(-c2ccccc2)nc1C(=O)NCC(C)C` | 67.38 |
| `Cc1nc(CN2CC3(CCNCC3)CCC2=O)cs1` | 5.85 |
| `CN(Cc1ccc(Br)s1)CC(O)COCCO` (stereo not shown) | 56.71 |
| `O=C(Nc1cccc(N2CCNC2=O)c1)C1CCCO1` (stereo not shown) | 14.85 |
| `CCNS(=O)(=O)C1CCN(c2ccncc2Cl)C1` (stereo not shown) | 12.45 |
| `COc1ccc(OCCCC(=O)NCCN(C)C)cc1` | 9.933 |
| `Cc1ccc(C(=O)NCC(c2ccco2)N(C)C)o1` (stereo not shown) | 13.06 |
| `CNC(=O)NC(=O)CCN1CCCCC1` | 43.52 |
| `COc1ccc(CC(=O)N(C)C)c(OC)c1OC` | -3.92 |
| `Cc1ccc(Cl)cc1NC(=O)CN1CCN(C)CC1` | 41.34 |

For reference, 6 entries once more:

SMILES	Percent Effect
CNCC(C)(CO)CO	-0.1
CCNC(=O)C1CCN(c2ccncc2Cl)CC1	1.491
CC(C)Oc1ccc(NC(=O)NCC(=O)N(C)C)cc1	-13.15
O=C1CCC(=O)N1CCOc1cccc(F)c1	27.9
CC(C(N)=O)N1CCN(Cc2ccc(Cl)c(F)c2)CC1 (stereo not shown)	30.91
Cc1ccc(Cl)cc1NC(=O)CN1CCN(C)CC1	41.34

Data taken from ChEMBL document CHEMBL3988442, “University of Dundee, Small-Polar-MMV Screening Library” (2021).